The values that follow come from paper PMC10764318.

Chains of the proteins cited; added tags and fusions are not shown. A line that says so, or that is headed by a name, gives the form on record, which may keep a tag or linker.
WRAIR-5001 (rhesus macaque), VL, as listed by the source, chain 2 of 2: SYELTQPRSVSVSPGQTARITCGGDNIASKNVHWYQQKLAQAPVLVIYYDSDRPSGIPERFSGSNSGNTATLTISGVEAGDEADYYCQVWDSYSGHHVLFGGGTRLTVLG
WRAIR-5001 (rhesus macaque), VH, as listed by the source, chain 1 of 2: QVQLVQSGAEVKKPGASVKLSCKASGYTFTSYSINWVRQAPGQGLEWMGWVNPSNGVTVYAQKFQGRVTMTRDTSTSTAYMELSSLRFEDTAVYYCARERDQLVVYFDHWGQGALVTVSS

Assay [1] concerns the target WRAIR-5001 (rhesus macaque). As to the kind of experiment: BLI.
Assay [2] concerns the target SARS-CoV-2 Delta (B.1.617.2) RBD (SARS-CoV-2) (UniProt P0DTC2). As to the kind of experiment: BLI.

For “SARS-CoV-2 Delta RBD (from UniProt P0DTC2 331-527) (domain or fragment)”, the Kd (commonly the constant that tells how readily two partners part at equilibrium) in assay [1] is 0.49 nM.

In assay [2], WRAIR-5001 (from UniProt P01857) came in with a Kd of 0.49 nM.
